Results of unrelated studies side by side (data: NIAID ChemDB).

Shared fields: cytotoxicity tests; cell line: KB; endpoint: CC50

CCn: concentration that lowers growth or viability of the cells by n%.

structure,method,value
Nc1c2c(nc(=S)n1-c1ccccc1)SC(c1ccncc1)C1=C2/C(=C/c2ccncc2)CCC1,MTT,13.1 µM
C/C(=C\C[C@H](O)[C@@H](C)[C@H]1CC[C@@]2(C)C3=C(CC[C@]12C)[C@@]1(C)CC[C@H](O)C(C)(C)C1CC3)C(=O)O,resazurin,>50 µg/mL
C=C1[C@H](O)[C@@H](CO)S[C@@H]1n1cc(C)c(=O)[nH]c1=O,MTT,>100 µg/mL
C[C@@H]1C[C@@H](O)[C@H]2C3=C(C[C@H](O)[C@@]2(O)C1)C(=O)c1c(O)cccc1C3=O,resazurin,4.9 µM
C=C1[C@H](n2cc(CCO)c(=O)[nH]c2=O)S[C@H](CO)[C@H]1O,MTT,>100 µg/mL
Cc1ccc(/C=c2\c(=O)sc3nc4c(c(=S)n23)C2=C(CCC/C2=C\c2ccncc2)C(c2ccncc2)S4)cc1,MTT,36.9 µM
OCC(CO)OCn1c(Br)nc2c(Cl)cc(Cl)cc21,,>100 µM
COc1cc2c3c(cc(O)c2cc1C)C(C)(C)C(=O)OC3=O,absorbance,>10 µM
Cc1cc(=O)[nH]c2c1ccc1ncc(C(=O)O[C@@H]3CC4CCC3(C)C4(C)C)c(C)c12,,5 µg/mL
COc1ccc2[nH]c3c(Cc4ccc5[nH]c6c(C)c(C)c(OC)c(O)c6c5c4)c(C)c(OC)c(O)c3c2c1,resazurin,40.1 µg/mL
CC(=O)O[C@@H](C/C=C(\C)C(=O)O)[C@@H](C)[C@H]1CC[C@@]2(C)C3=C(CC[C@]12C)[C@@]1(C)CC[C@@H](O)C(C)(C)C1CC3,resazurin,31.55 µg/mL
COc1cccc2c1C(=O)c1ccc3cc(C)cc(O)c3c1C2=O,resazurin,26.5 µM
CCO/C(C)=N\C1=C(C#N)C2=C(CCC/C2=C\c2ccncc2)C(c2ccncc2)S1,MTT,44.6 µM
COc1c(C)c(C)c2[nH]c3ccccc3c2c1O,resazurin,8.6 µg/mL
Nc1nc(N)c2cc3c(nc2n1)CCc1ccccc1-3,MTT,9.5 µM
C=C1[C@H](n2cc(I)c(=O)[nH]c2=O)S[C@H](CO)[C@H]1O,MTT,>100 µg/mL
N=c1c2c(ncn1Nc1ccccc1)SC(c1ccncc1)C1=C2/C(=C/c2ccncc2)CCC1,MTT,11.7 µM
OCCOCn1cnc2cc(Cl)c(Cl)cc21,,>100 µM
C[N+](C)(C)C(Cc1c[nH]c2ccccc12)C(=O)[O-],resazurin,>50 µg/mL
CCOC1N=C2C3=C(N=C(C)N2N1c1ccccc1)SC(c1ccncc1)C1=C3/C(=C/c2ccncc2)CCC1,MTT,12.2 µM
CCCCCCCCCCCC(=O)c1c(O)cc(O)cc1O,resazurin,13.2 µg/mL
Clc1nnnc2c1C1=C(CCC/C1=C\c1ccncc1)C(c1ccncc1)S2,MTT,11.9 µM
OC[C@H]1O[C@@H](n2c(Cl)nc3cc(Cl)c(Cl)cc32)[C@H](O)[C@@H]1O,,210 µM
C=C1[C@H](O)[C@@H](CO)S[C@@H]1n1cc(CC)c(=O)[nH]c1=O,MTT,>100 µg/mL
COc1ccc2[nH]c3c(C)c(C)c(OC)c(O)c3c2c1,resazurin,21.4 µg/mL
O=C(CCCCCCCCc1ccccc1)c1c(O)cccc1O,resazurin,>60 µg/mL
OCC(CO)OCn1c(=S)[nH]c2c(Cl)c(Cl)ccc21,,>100 µM
COc1ccc2[nH]c3c(C)c(C)c(OC)c(OC)c3c2c1,resazurin,33.2 µg/mL

For reference, 2 entries again:

structure	method	value
Cc1cc(=O)[nH]c2c1ccc1ncc(C(=O)O[C@@H]3CC4CCC3(C)C4(C)C)c(C)c12		5 µg/mL
OC[C@H]1O[C@@H](n2c(Cl)nc3cc(Cl)c(Cl)cc32)[C@H](O)[C@@H]1O		210 µM

An empty or dashed field is not shown. Lines come from different laboratories, so protocols vary.